# Measurements published in patent EP2800973B1 (priority 2012, dated 2013).
# Tested on: BoCell™ model cell line
# Format: cell-based
# Settings: 24 hours of BoNT/A treatment with H7 equivalent to 72 hour BoNT/A treatments under current assay conditions
structure (smiles),measurement,value
"CC1CNCCN1S(=O)(=O)c1cccc2cnccc12.Cl.Cl (stereo not shown) [H7, 1-(5-isoquinolinylsulfonyl)-2-methylpiperazine dichloride]",assay time reduction,48 h
